We go through 1 compound from US20250257099A1 (priority 2022, published 2025).

One may read the IC50 as the point on the concentration scale where inhibition reaches its midpoint. Read a high IC50 as weaker potency in that assay.

In one test the test system is SARS-CoV-2. The conditions noted are these: 72 h.
The next test concerns the target SARS-CoV-2 S protein (Severe acute respiratory syndrome coronavirus 2, UniProt P0DTC2). Briefly: cell-based.

A value given as a limit tells only on which side of the number the result lay.

Take `CC[C@H](C)[C@H](NC(=O)[C@H](Cc1ccc(O)cc1)NC(=O)[C@H](CO)NC(=O)[C@H](CCC(=O)O)NC(=O)[C@H](CC(N)=O)NC(=O)[C@H](CC(C)C)NC(=O)[C@H](C)NC(=O)[C@H](CCCCN)NC(=O)[C@@H](NC(=O)[C@@H](NC(=O)[C@H](CCC(N)=O)NC(=O)[C@H](CCC(N)=O)NC(=O)[C@H](CC(C)C)NC(=O)[C@H](CO)NC(=O)[C@H](CC(C)C)NC(=O)[C@H](CCSC)NC(=O)[C@H](CCC(=O)O)NC(=O)[C@H](Cc1ccc(O)cc1)NC(=O)[C@@H](NC(=O)[C@H](CC(C)C)NC(=O)[C@H](CC(=O)O)NC(=O)[C@H](CC(C)C)NC(=O)[C@H](CC(C)C)NC(=O)[C@@H](NC(=O)[C@@H](NC(=O)[C@H](CC(N)=O)NC(=O)[C@@H](NC(=O)[C@H](CCC(N)=O)NC(=O)[C@@H](NC(=O)[C@H](CC(C)C)NC(=O)[C@H](CO)NC(C)=O)[C@@H](C)O)[C@@H](C)CC)[C@@H](C)O)[C@@H](C)O)[C@@H](C)O)C(C)C)C(C)C)C(=O)N[C@@H](CC(=O)O)C(=O)N[C@@H](CC(C)C)C(=O)N[C@@H](CCCCN)C(=O)N[C@@H](CCC(=O)O)C(=O)N[C@@H](CC(C)C)C(=O)NCC(=O)N[C@@H](CO)C(=O)NCC(=O)N[C@@H](CO)C(=O)NCC(=O)N[C@@H](CSCC(=O)NCCOCCOCCOCCOCCC(=O)O[C@H]1CC[C@@]2(C)C(=CC[C@H]3[C@@H]4CC[C@H]([C@H](C)CCCC(C)C)[C@@]4(C)CC[C@@H]32)C1)C(N)=O` [MERS-CoV C-lipopeptide]: the results for the IC50 in the test on SARS-CoV-2 and on SARS-CoV-2 S protein were approximately 90 nM and more than 650 nM, respectively.
